Pooled drug test results. Numbers come from NIAID ChemDB, via PubChem.

Common to all: tests on isolated targets

Blank or dashed fields: not listed here.

| smiles | dose | strain or isolate | target | method | read-out | organism | value |
|---|---|---|---|---|---|---|---|
| C[n+]1ccc(Nc2ccc(NC(=O)c3cc(Nc4cc[n+](C)c5ccc([N+](=O)[O-])cc45)ccc3[N+](=O)[O-])cc2)cc1 | - | - | Mycolate synthetase | HPLC | IC50 | Mycobacterium tuberculosis | 500 µM |
| COc1nc(C)nc(NC(=O)NS(=O)(=O)c2ccccc2OCCCl)n1 | - | - | Acetohydroxyacid synthase | - | Ki | Mycobacterium avium | 39.6 µM |
| O=C1N=C2C(C(=O)N=C3SC([N+](=O)[O-])=CN32)C(c2ccc(Cl)cc2)N1 | 100 µM | - | CysK1 | absorbance | inhibition | Mycobacterium tuberculosis | 20% |
| COC(=O)c1ccccc1S(=O)(=O)NC(=O)Nc1nc(C)cc(C)n1 | - | - | Acetohydroxyacid synthase | - | Ki | Mycobacterium tuberculosis | 11.6 µM |
| COC(=O)c1ccccc1S(=O)(=O)NC(=O)Nc1nc(C)cc(C)n1 | - | - | Acetohydroxyacid synthase | - | Ki | Mycobacterium avium | 13.5 µM |
| Cc1cn([C@@H]2O[C@H](CO)[C@@H](N)[C@@H]2O)c(=O)[nH]c1=O | - | - | Thymidylate kinase | - | Ki | Mycobacterium tuberculosis | 1260 µM |
| O=C1N=C2C(C(=O)N=C3SC([N+](=O)[O-])=CN32)C(c2cccc(Br)c2)N1 | 100 µM | - | CysK1 | absorbance | inhibition | Mycobacterium tuberculosis | 39.9% |
| CCOc1ccc2cc(-n3nncc3COc3nc(-c4cccnc4)sc3C(=O)OC)c(=O)oc2c1 | - | - | DNA gyrase | gel / absorbance | IC50 | Mycobacterium tuberculosis | 0.5 µM |
| O=c1ccn([C@H]2C[C@H](O)[C@@H](COP(=O)(O)O)O2)c(=O)[nH]1 | - | - | Thymidylate kinase | - | Ki | Mycobacterium tuberculosis | 280 µM |
| O=C(N/N=C/c1c(Cl)cccc1[N+](=O)[O-])c1ccc(S(=O)(=O)NC[C@H]2O[C@@H](n3ccc(=O)[nH]c3=O)[C@H](O)[C@@H]2O)cc1 | - | - | UDP-galactopyranose mutase | - | IC50 | Mycobacterium tuberculosis | >100 µM |
| Cc1cc(N)c2ccccc2[n+]1CCCCCCCCCC[n+]1c(C)cc(N)c2ccccc21 | - | - | Mycolate synthetase | HPLC | Ki | Mycobacterium tuberculosis | 0.22 µM |
| NNC(=O)c1ccncc1 | - | - | DNA gyrase | gel | IC50 | Mycobacterium tuberculosis | >100 µM |
| C[C@@H]1CN(c2c(F)c(N)c3c(=O)c(C(=O)O)cn(C4CC4)c3c2F)C[C@H](C)N1 | - | - | Gyrase (V90A mutant) | - | IC50 | Mycobacterium tuberculosis | >400 µg/mL |
| COc1ccc2nc3cc(Cl)ccc3c(Nc3cc(CN4CCCC4)c(O)c(CN4CCCC4)c3)c2n1 | - | - | DNA gyrase | gel | IC50 | Mycobacterium tuberculosis | 25 µM |
| COC(=O)c1sc(-c2ccncc2)nc1OCc1cnnn1-c1cc2ccc(N)cc2oc1=O | - | - | DNA gyrase | gel / absorbance | IC50 | Mycobacterium tuberculosis | 13.3 µM |
| Cc1ccc2nc(C)cc(N)c2c1 | - | - | Mycolate synthetase | HPLC | IC50 | Mycobacterium tuberculosis | 4200 µM |
| O=C(O)Cc1ccc(O)c(Cl)c1 | - | Rv3273 | Rv3273 | - | Ki | Mycobacterium tuberculosis | 10.8 µM |
| CCCC[C@H](CN(O)C=O)C(=O)N1CCCC1C(=O)Nc1cc(CC)ccn1 | - | - | Peptide deformylase | - | IC50 | Mycobacterium tuberculosis | 90 µM |
| O=c1[nH]c(=O)n([C@H]2C[C@H](O)[C@@H](CO)O2)cc1F | - | - | Thymidine monophosphate kinase | - | IC50 | Mycobacterium tuberculosis | 212 µM |
| COC(=O)c1sc(-c2cccnc2)nc1OCc1cnnn1-c1cc2ccc(O)cc2oc1=O | - | - | DNA gyrase | gel / absorbance | IC50 | Mycobacterium tuberculosis | 12.4 µM |
| Cc1cn([C@H]2C[C@H](N=[N+]=[N-])[C@@H](COP(=O)(O)O)O2)c(=O)[nH]c1=O | - | - | Thymidylate kinase | - | Ki | Mycobacterium tuberculosis | 50 µM |
| O=C1N=C2SC([N+](=O)[O-])=CN2C2=NC(=S)NC(c3ccc(Br)cc3)C12 | 100 µM | - | CysK1 | absorbance | inhibition | Mycobacterium tuberculosis | 34.4% |
| COC(=O)c1ccccc1S(=O)(=O)NC(=O)Nc1nc(OC(F)F)cc(OC(F)F)n1 | - | - | Acetohydroxyacid synthase | - | Ki | Mycobacterium tuberculosis | 30.7 µM |
| O=c1oc(/C=C/c2cccnc2)ns1 | - | - | Proteasome | broth dilution / fluorescence | IC50 | Mycobacterium tuberculosis | 1.35 µM |
| O=C1N=C2C(C(=O)N=C3SC([N+](=O)[O-])=CN32)C(c2ccccc2[N+](=O)[O-])N1 | 100 µM | - | CysK1 | absorbance | inhibition | Mycobacterium tuberculosis | 7% |
| O=C(O)c1sc(-c2cccnc2)nc1OCc1cnnn1-c1cc2ccc(O)cc2oc1=O | - | - | DNA gyrase | gel / absorbance | IC50 | Mycobacterium tuberculosis | 18.2 µM |
| O=C(N[C@H]1[C@@H](OC2C[C@H](CO)[C@@H](O)[C@@H](O)[C@H]2O)O[C@H](CO)[C@@H](O)[C@@H]1O)c1ccc(Sc2ccc(Cl)cc2)nc1 | 50 µM | - | MYCOTHIOL-S-CONJUGATE AMIDASE | - | inhibition | Mycobacterium tuberculosis | 10% |
| Cc1cn([C@@H]2O[C@H](CO)[C@@H](N=[N+]=[N-])[C@H]2F)c(=O)[nH]c1=O | - | - | Thymidylate kinase | - | Ki | Mycobacterium tuberculosis | 118 µM |
| COC(=O)c1ccccc1S(=O)(=O)NC(=O)Nc1nc(C)nc(C)n1 | - | - | Acetohydroxyacid synthase | - | Ki | Mycobacterium avium | 39 µM |
| O=C1N=C2SC([N+](=O)[O-])=CN2C2=NC(=S)NC(c3c(Cl)cccc3Cl)C12 | 100 µM | - | CysK1 | absorbance | inhibition | Mycobacterium tuberculosis | 0% |
| Nc1ccc2cc(-n3nncc3COc3nc(-c4ccccc4)sc3C=O)c(=O)oc2c1 | - | - | DNA gyrase | gel / absorbance | IC50 | Mycobacterium tuberculosis | 0.62 µM |
| CO[C@H](c1ccccc1)c1nsc(=O)o1 | - | - | Proteasome | broth dilution / fluorescence | IC50 | Mycobacterium tuberculosis | >100 µM |
| Nc1ccc2cc(-n3nncc3COc3nc(-c4cccnc4)sc3C(=O)O)c(=O)oc2c1 | - | - | DNA gyrase | gel / absorbance | IC50 | Mycobacterium tuberculosis | 0.75 µM |
| O=c1oc(CF)ns1 | - | - | Proteasome | broth dilution / fluorescence | IC50 | Mycobacterium tuberculosis | 80.5 µM |
| O=c1[nH]c(=O)n([C@H]2C[C@H](O)[C@@H](CO)O2)cc1/C=C/Br | - | - | Thymidine monophosphate kinase | - | IC50 | Mycobacterium tuberculosis | 625 µM |
| O=c1oc(Cc2ccccc2)ns1 | - | - | Proteasome | broth dilution / fluorescence | IC50 | Mycobacterium tuberculosis | >100 µM |
| COc1ccc(C2NC(=O)N=C3C2C(=O)N=C2SC([N+](=O)[O-])=CN23)cc1 | 100 µM | - | CysK1 | absorbance | inhibition | Mycobacterium tuberculosis | 6.1% |
| O=C(N/N=C/c1cc([N+](=O)[O-])cc([N+](=O)[O-])c1O)c1ccc(S(=O)(=O)NC[C@H]2O[C@@H](n3ccc(=O)[nH]c3=O)[C@H](O)[C@@H]2O)cc1 | 25 µM | - | UDP-galactopyranose mutase | - | inhibition | Mycobacterium tuberculosis | 70% |
| O=c1onc(/C=C/c2ccccc2)o1 | - | - | Proteasome | broth dilution / fluorescence | IC50 | Mycobacterium tuberculosis | 54.5 µM |
| CCN(CC)CCCC(C)Nc1ccnc2cc(Cl)ccc12 | - | - | DNA gyrase | gel | IC50 | Mycobacterium tuberculosis | >100 µM |
| Cc1cn([C@@H]2O[C@H](CO)[C@@H](N=[N+]=[N-])[C@H]2O)c(=O)[nH]c1=O | - | - | Thymidylate kinase | - | Ki | Mycobacterium tuberculosis | 740 µM |
| Nc1ccc2cc(-n3nncc3COc3nc(-c4ccccn4)sc3C(=O)O)c(=O)oc2c1 | - | - | DNA gyrase | gel / absorbance | IC50 | Mycobacterium tuberculosis | 0.8 µM |
| CCc1cn([C@H]2C[C@H](O)[C@@H](CO)O2)c(=O)[nH]c1=O | - | - | Thymidine monophosphate kinase | - | IC50 | Mycobacterium tuberculosis | 1140 µM |

Percent inhibition refers to the dose given; in toxicity tests it is the harm to the cells. Rows are shuffled and stem from different studies. ICn: concentration for n% inhibition.